Compound potency records, mixed from different reports. Data source: NIAID ChemDB in PubChem.

Common to all: toxicity to cultured cells; cells: HeLa; endpoint: CC50

CCn is the concentration with n% toxicity to the cells. An empty or dashed field is not shown. Conditions beyond the fields shown may differ between rows.

smiles,read by,value
CO[C@H](C)[C@@H](NC(=O)[C@@H]1CCCN1C)[C@@H]1O[C@@H](SCCOC(=O)c2ccccc2O)[C@@H](O)[C@H](O)[C@H]1O,,50 µg/mL
Nc1ccc(N2CCCCC2)c2nonc12,fluorescence,25 µM
COC(=O)[C@]1(C)CCC[C@@]2(C)[C@H]1[C@H](O)CC1C[C@@H](O)[C@]3(C)CC[C@]12C3,,226 µM
CN(CC(=O)O)NC(=O)CC(N)CC(O)CN,,20 µg/mL
C[C@@]1(CO)[C@H](O)CC[C@@]2(C)[C@H]1CC[C@H]1C[C@@H]3C[C@@]12CC[C@]3(O)CO,,210 µM
CCCCSc1n[nH]c(-c2ccc(O)cc2)n1,MTT,23.56 µg/mL
CCCCCCCCCCCCCCCCOP(=O)([O-])OCCC[n+]1ccccc1,MTT,74.7 µM
CS/C(Nc1cccc(C(F)(F)F)c1)=C(/C#N)S(=O)(=O)c1ccccc1,MTT / absorbance,13.3 µM
Nc1ncnc2c1ccn2[C@@H]1O[C@H](CO)[C@@H](O)[C@H]1O,trypan blue,1.25 µg/mL
CS/C(Nc1ccccc1)=C(/C#N)S(=O)(=O)c1ccc(Cl)cc1,MTT / absorbance,>30 µM
O=C(O)CCCCCNc1ccc([N+](=O)[O-])c2nonc12,fluorescence,>50 µM
CC(C)(C)CC(C)(C)c1ccc(OCCOP(=O)([O-])OCC[N+](C)(C)Cc2ccccc2)cc1,MTT,>100 µM
COC(=O)[C@]1(C)CCC[C@@]2(C)[C@H]1[C@H](OC(=O)c1ccccc1)CC1C[C@@H](O)[C@]3(C)CC[C@]12C3,,14.8 µM
O=c1cc(C(F)(F)F)[nH]c(=S)[nH]1,MTS,56.3 µM
Nc1ncnc2c1ccn2[C@@H]1O[C@H](CO)[C@H](O)[C@H]1O,trypan blue,4 µg/mL
CC(=O)OC[C@]1(C)CCC[C@@]2(C)[C@H]1[C@H](O)CC1C[C@@H](OC(C)=O)[C@]3(C)CC[C@]12C3,,36.9 µM
CCCCCCCCCCCCCCCCOP(=O)([O-])OCC[n+]1ccccc1,MTT,52.1 µM
C[C@]12C[C@H](O)[C@H]3[C@@H](CCC4=CC(=O)CC[C@@]43C)[C@@H]1CC[C@@H]2C(=O)CO,,>10 µg/mL
COc1cc(Cl)c(C(=O)NCCOc2cccc(C)c2)cc1OC,,>142.9 µM
CCCCSc1n[nH]c(-c2ccccc2C)n1,MTT,12.8 µg/mL
C#Cc1c(C(N)=O)ncn1[C@@H]1O[C@H](CO)[C@@H](O)[C@H]1O,MTT / neutral red,13 µg/mL
C#C[C@]1(CO)O[C@@H](n2ccc(N)nc2=O)[C@@H](O)[C@@H]1O,MTT,>200 µM
Cc1cccc(OCCNC(=O)c2c(Cl)ccc3cc(C)cnc23)c1,,>140.9 µM
CCCCC/C=C/C/C=C/CCCCCCCCO,,25 µg/mL
Fc1ccc(-c2nc(SCCCCBr)n[nH]2)cc1,MTT,24.79 µg/mL
CC(C)CCCC(C)C1CCC2C3CC=C4CC(OC(=O)CCC(=O)O)CCC4(C)C3CCC12C,,>200 µg/mL
Nc1ncnc2c1c(Cl)cn2[C@@H]1O[C@H](CO)[C@@H](O)[C@H]1O,trypan blue,4 µg/mL
O=C(NCCOc1ccc2ccccc2c1)c1ccccc1O,,>167.2 µM
O=c1[nH]cnc2[nH]ncc12,,>200 µg/mL
O=[N+]([O-])c1ccc(-c2n[nH]c(=S)s2)cc1,MTT,65.3 µg/mL
Cc1cccc(OCCNC(=O)c2ccccc2C(F)(F)F)c1,,>154.7 µM
C[C@]1(CO)O[C@@H](n2ccc(N)nc2=O)C[C@@H]1O,MTT,>200 µM
Nc1cc2[nH]cnc2c(=O)[nH]1,trypan blue,>200 µg/mL
Cc1cccc(OCCNC(=O)c2cccc(Cl)c2)c1,,132.9 µM
COC(=O)[C@]1(C)CCC[C@@]2(C)[C@H]1C(=O)CC1CC(=O)[C@]3(C)CC[C@]12C3,,202 µM
CS/C(Nc1cc(C)cc(C)c1)=C(/C#N)S(=O)(=O)c1ccccc1,MTT / absorbance,>100 µM
Nc1ncnc2c1ncn2[C@@H]1O[C@H](CO[C@H]2[C@H](O)[C@H](O[C@H]3O[C@@H](CO)[C@@H](O)[C@H](O)[C@@H]3N)[C@@H](O)[C@@H](OS(=O)(=O)O)[C@@H]2OC(=O)[C@@H](N)CO)[C@@H](O)[C@H]1O,,>200 µg/mL
CCCCCCCCCCCCCCCCOP(=O)([O-])OCC[N+](C)(C)Cc1ccccc1,MTT,55.7 µM

A second listing of 4 rows from above:

smiles	read by	value
C[C@]1(CO)O[C@@H](n2ccc(N)nc2=O)C[C@@H]1O	MTT	>200 µM
COC(=O)[C@]1(C)CCC[C@@]2(C)[C@H]1[C@H](OC(=O)c1ccccc1)CC1C[C@@H](O)[C@]3(C)CC[C@]12C3		14.8 µM
COc1cc(Cl)c(C(=O)NCCOc2cccc(C)c2)cc1OC		>142.9 µM
O=c1[nH]cnc2[nH]ncc12		>200 µg/mL